PMC9202104 (BMC Biology, 2022)

Tested on: 8 human ZIKV strains (PAN2016, R116265, PAN2015, FLR, R103451, PRVABC59, PLCal_ZV, IbH 30656)
Format: cell-based, Zika virus
Conditions: CC50 Vero E6 / average IC50 (human strains)
Method: After removal of the unbound compounds by centrifugation (after addition of 3% PEG-6000), ZIKV was incubated with Vero E6 cells in 24-well plates at 37°C for 1 h. The cells were then washed with PBS, overlaid with DMEM containing 1% carboxymethyl cellulose and 2% FBS, and cultured at 37°C for 4–5 days, followed by being stained with 0.5% crystal violet. […] Plaques in each well were calculated, and IC50 of compounds for each compound was calculated using the CalcuSyn computer program.

First: Cc1cc2c(C(C)C)c(O)c(O)c3c2c(c1-c1c(C)cc2c(C(C)C)c(O)c(O)c4c2c1OC4N)OC3N (stereo not shown) [ST069299]
Second: Cc1cc2c(C(C)C)c(O)c(O)c(/C=N/NC(=O)C(C)C)c2c(O)c1-c1c(C)cc2c(C(C)C)c(O)c(O)c(/C=N/NC(=O)C(C)C)c2c1O [ST086273]
The SI of the first is lower: 8.6 for the first, 9.2 for the second.

Going from `Cc1cc2c(C(C)C)c(O)c(O)c(/C=N/n3c(=O)[nH][nH]c3=O)c2c(O)c1-c1c(C)cc2c(C(C)C)c(O)c(O)c(/C=N/n3c(=O)[nH][nH]c3=O)c2c1O` [ST087010] to `Cc1cc2nc[nH]c2c(/N=C/c2c(O)c(O)c(C(C)C)c3cc(C)c(-c4c(C)cc5c(C(C)C)c(O)c(O)c(/C=N/c6c(C)c(C)cc7nc[nH]c67)c5c4O)c(O)c23)c1C` [ST092971], the SI falls from 17.1 to 10.9.
